Results of unrelated studies side by side (data: NIAID ChemDB).

All rows: tests in culture; organism: Candida tropicalis

A number after MIC or MFC names an inhibition level or a share of isolates. Percent inhibition refers to the dose given; in toxicity tests it is the harm to the cells. Blank or dashed fields: not listed here. Lines come from different laboratories, so protocols vary. Zones are inhibition diameters on agar.

smiles	measure	tested at	read by	setting	strain	result
CC(C)(O)c1cn(-c2ccc3ccccc3c2)nn1	inhibition	2048 µg/mL	broth dilution	-	URM 933	0%
O=C(OC(CCn1ccnc1)c1ccccc1)c1ccc(Cl)c(Cl)c1	zone	1000 µg	agar diffusion	-	-	13 mm
O=C1N[C@@H](Cc2c[nH]c3ccccc23)C(=O)N2CCC[C@@H]12	zone	4 µg/mL	agar diffusion / agar	-	MTCC 184	22 mm
CC(=O)N1CCN(c2ccc(OC[C@H]3CO[C@](Cn4ccnc4)(c4ccc(Cl)cc4Cl)O3)cc2)CC1	zone	20 mg/mL	agar diffusion / agar	-	T-1	18 mm
O=c1[nH]c(=S)[nH]c2nc(-c3ccccn3)c(-c3ccccn3)nc12	zone	500 mg/mL	-	-	-	25 mm
CC1(C)O[C@H]2[C@H](O)[C@@H](N=[N+]=[N-])C=C(c3ccc(C=O)cc3)[C@H]2O1	inhibition	7.8 µg/mL	broth dilution / turbidity	-	C 131	0%
O=c1[nH]cnc2nc(-c3ccccn3)c(-c3ccccn3)nc12	zone	250 mg/mL	-	-	-	25 mm
CC[C@@H]([C@H](C)O)n1ncn(-c2ccc(N3CCN(c4ccc(OC[C@@H]5CO[C@@](Cn6cncn6)(c6ccc(F)cc6F)C5)cc4)CC3)cc2)c1=O	MIC	-	broth dilution	-	8684	0.03 µg/mL
Clc1ccc(C(Cn2ccnc2)OCc2csc3c(Cl)cccc23)c(Cl)c1	MIC90	-	visual reading	24 h	65 isolates	4 µg/mL
Cc1ccc(-n2cc(C(C)(C)O)nn2)cc1C	inhibition	2048 µg/mL	broth dilution	-	URM 933	0%
C[C@H]1[C@H](O)[C@@H](C)/C=C/C=C/C=C/C=C/C=C/C=C/C=C/[C@H](O[C@@H]2O[C@H](C)[C@@H](O)[C@H](N)[C@@H]2O)C[C@@H]2O[C@](O)(C[C@@H](O)C[C@@H](O)CC[C@H](O)[C@@H](O)C[C@@H](O)CC(=O)O[C@H]1C)C[C@H](O)[C@H]2C(=O)O	zone	100 µg/disc	agar diffusion	-	Ct1	18 mm
CC(C)(O)c1cn(-c2cccc3ccccc23)nn1	inhibition	2048 µg/mL	-	-	URM 933	0%
CC1CC2=C(O1)c1ccccc1C(=O)C2=O	MIC	-	broth dilution	-	Clinical isolate	18.7 µg/mL
Clc1nccc2nc(-c3ccccn3)c(-c3ccccn3)nc12	zone	250 mg/mL	-	-	-	30 mm
CSCC[C@H]1NC(=O)[C@H]2CCCN2C1=O	zone	16 µg/mL	agar diffusion / agar	-	MTCC 184	20 mm
O=c1[nH]c(=O)c2nc(-c3ccccn3)c(-c3ccccn3)nc2[nH]1	zone	500 mg/mL	-	-	-	21 mm
O=C(OC(CCn1ccnc1)c1ccccc1)c1ccc(F)cc1	zone	1000 µg	agar diffusion	-	-	16 mm
Cn1c(=S)[nH]c2nc(-c3ccccn3)c(-c3ccccn3)nc2c1=O	zone	500 mg/mL	-	-	-	0 mm
COc1ccc(C(CCn2ccnc2)OC(=O)c2ccc(Cl)cc2)cc1	zone	1000 µg	agar diffusion	-	-	14 mm
C=CCc1ccc(OC)c(OC)c1	MIC90	-	turbidity	-	3167	345 µg/mL
O=c1ncc2nc(-c3ccccn3)c(-c3ccccn3)nc2[nH]1	zone	500 mg/mL	-	-	-	27 mm